Potato spindle tuber viroid, loop 6: variant abundance in plants

Region: loop 6 of PSTVd (intermediate strain), upper and lower strand joined, each 5' to 3', the first 5 letters being the upper strand, closing pairs included. Wild type: UGACCGCGAG. Varied positions (N): UNNNCGNNNG.

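A pool of all variants was put on leaves of three Nicotiana benthamiana plants. Progeny were sequenced from the inoculated region (day 5), the margin of the inoculated leaf (day 10) and systemic leaves (day 12).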

Values are reads per thousand in the sample; higher means more abundant, 0 means not found. Each site shows the three plants. "Pool" is the share in the plasmid pool used as inoculum, on the same scale. The inoculated region was read from the minus strand, the other sites from the plus strand. For reference, wild type rose from 20.7 per thousand in the pool to 195, 198, 203 (inoculated region), 629, 591, 734 (leaf margin) and 942, 870, 868 (systemic leaves). The authors trace changes outside the varied positions to PCR and sequencing errors or to mutation in the plant; presence does not show that a variant is infectious alone. With 36,220-57,551 reads a sample, very low values are single reads.

sequence	pool	inoculated region	leaf margin	systemic leaves
UAAGCGGAGG	0.222	0.104 0.108 0.0922	0 0 0	0 0 0.0205
UAAGCGGAUG	0.275	0.226 0.0180 0.0553	0.0276 0 0	0 0 0
UAAGCGGCAG	0.196	0.591 0.719 0.516	0.138 0.0504 0	0 0.0404 0.0205
UAAGCGGCCG	0.392	0.643 0.611 0.756	0.0828 0 0	0 0 0
UAAGCGGCGG	0.157	0.0869 0.0180 0.0369	0 0 0	0 0 0
UAAGCGGCUG	0.301	0.0695 0.0539 0.0553	0 0 0	0 0 0
UAAGCGGGAG	0.301	0.869 0.683 0.498	0.0552 0.177 0.0696	0.0180 0 0.0615
UAAGCGGGCG	0.288	0.695 0.790 0.350	0.110 0.0504 0.186	0.0180 0 0
UAAGCGGGGG	0.144	0.156 0.0898 0.0738	0.0276 0 0	0 0 0
UAAGCGGGGU	0.0131	0 0 0	0 0 0	0 0 0
UAAGCGGGUG	0.157	0.104 0.0539 0.0738	0 0 0	0 0 0
UAAGCGGUAG	0.431	0.0869 0.108 0.129	0.331 0 0	0 0 0.0410
UAAGCGGUCG	0.327	0.139 0.0180 0.0369	0.0276 0 0	0 0 0
UAAGCGGUGG	0.327	0.174 0.0180 0.0553	0 0 0	0 0 0
UAAGCGGUUG	0.261	0.0869 0.0719 0.0922	0 0 0.0232	0 0 0
UAAGCGUAAG	0.105	0.695 0.790 0.498	0.166 0.0504 0.0696	0.0180 0.0404 0.0205
UAAGCGUACG	0.458	0.0348 0.108 0.129	0 0 0.0232	0 0 0
UAAGCGUAGG	0.301	0.0869 0.0539 0.0553	0.0276 0 0	0 0.0202 0
UAAGCGUAUG	0.248	0.139 0.0539 0.148	0.497 0 0	0 0 0
UAAGCGUCAG	0.301	0.608 0.736 0.627	0.110 0.126 0.116	0.0180 0 0.144
UAAGCGUCCG	0.209	0.695 0.611 0.461	0.0828 0.126 0	0 0 0.0205
UAAGCGUCGG	0.288	0.122 0.108 0.0738	0.0276 0 0	0 0.0606 0
UAAGCGUCUG	0.261	0.626 0.683 0.498	0.193 0.0504 0.0696	0 0 0
UAAGCGUGAG	0.327	0.643 0.629 0.498	0.0828 0.0252 0.0464	0 0.0404 0.0410
UAAGCGUGCG	0.314	0.765 0.772 0.387	0.166 0 0	0.0539 0.0202 0.0820
UAAGCGUGGG	0.157	0.0695 0.0539 0.129	0 0 0.0232	0 0 0
UAAGCGUGUG	0.327	0.226 0.0539 0.0922	0 0 0	0 0 0
UAAGCGUUAG	0.445	0.626 0.575 0.516	0.110 0.0757 0.116	0 0 0
UAAGCGUUCG	0.288	0.0869 0.0539 0.0369	0 0 0.0232	0 0 0
UAAGCGUUGG	0.353	0.0869 0.0719 0.0553	0 0 0	0 0 0
UAAGCGUUUG	0.445	0.122 0.108 0.0738	0 0 0.0232	0 0 0
UAAUCGAAAG	0.183	0.695 0.611 0.498	0.276 0 0.0464	0 0 0
UAAUCGAACG	0.366	0.556 0.539 0.498	0.110 0 0.0232	0.0180 0.0202 0.0205
UAAUCGAAGG	0.144	0.0521 0.144 0.129	0 0 0	0 0 0
UAAUCGAAUG	0.405	0.209 0.180 0.0738	0 0 0	0 0 0
UAAUCGACAG	0.327	0.104 0.108 0.0738	0 0 0	0 0.0404 0.0205
UAAUCGACCG	0.209	0.104 0.0359 0.0922	0.0276 0 0	0 0 0
UAAUCGACGG	0.327	0.0521 0.0719 0.0922	0 0 0	0 0 0
UAAUCGACUG	0.366	0.139 0.0719 0.0922	0 0 0	0 0 0
UAAUCGAGAG	0.170	0.209 0.0539 0.111	0 0 0.0232	0 0 0
UAAUCGAGCG	0.366	0.834 0.772 0.406	0.0828 0.0252 0.0696	0 0 0
UAAUCGAGGG	0.235	0.104 0.0719 0.111	0 0 0	0 0 0
UAAUCGAGUG	0.327	0.122 0.126 0.0738	0 0 0	0 0 0
UAAUCGAUAG	0.314	0.156 0.0539 0.111	0 0 0.162	0 0 0
UAAUCGAUCG	0.170	0.0869 0.144 0.0553	0 0 0.0232	0 0 0
UAAUCGAUGG	0.248	0.0695 0.198 0.111	0 0 0	0 0 0

Values reported by Wu et al. 2024 (doi:10.1371/journal.ppat.1012142).